Measured values from several laboratories, pooled; numbers as filed in NIAID ChemDB.

CCn: concentration that lowers growth or viability of the cells by n%.

{"SMILES": "Nc1ccn(C[C@H]2COP(=O)(O)CO2)c(=O)n1", "read-out": "EC50", "cells": "3T3", "organism": "Cowpox virus", "test": "culture", "value": "12.3 µM"}
{"SMILES": "O=C(O)COc1ccc2[nH]cc(C[C@H](NC(=O)c3ccc4c(c3)nc(-c3ccccn3)n4C3CCCCC3)C(=O)O)c2c1", "read-out": "IC50", "protein": "RNA-dependent RNA polymerase", "organism": "Poliovirus", "test": "target", "value": ">25 µM"}
{"SMILES": "CCN(CC)C(=O)C(NC(C)=O)[C@H]1C[C@@H](C(=O)O)C[C@@H]1N=C(N)N", "read-out": "IC50", "protein": "Neuraminidase", "organism": "Influenza A virus (H6N2)", "test": "target", "value": "3 µM"}
{"SMILES": "Nc1ccn(C[C@@H](CO)OCP(=O)(O)O)c(=O)n1", "read-out": "EC50", "cells": "3T3", "organism": "Camelpox virus", "test": "culture", "value": "2.5 µM"}
{"SMILES": "CC(=O)NC(C(=O)N(C)C(C)C)[C@H]1CC(C(=O)O)C[C@@H]1N=C(N)N", "read-out": "IC50", "protein": "Neuraminidase", "organism": "Influenza A virus (H6N2)", "test": "target", "value": "3.21 µM"}
{"SMILES": "Nc1nc2c(nnn2CCOCP(=O)(O)O)c(=O)[nH]1", "read-out": "CC50", "cells": "PHK", "test": "toxicity", "value": "6.4 µg/mL"}
{"SMILES": "Nc1ccn(C[C@@H](CO)OCP(=O)(O)O)c(=O)n1", "read-out": "EC50", "cells": "BSC", "organism": "Monkeypox virus", "test": "culture", "value": "47 µM"}
{"SMILES": "C[C@@H](Cn1cnc2c(=O)[nH]c(N)nc21)OCP(=O)(O)O", "read-out": "CC50", "cells": "PHK", "test": "toxicity", "value": "5.3 µg/mL"}
{"SMILES": "NC12CC3CC(CC(C3)C1)C2", "read-out": "EC50", "cells": "MDCK", "strain": "H2N2 JAPAN/305/57", "organism": "Influenza A virus", "test": "culture", "value": "0.062 µg/mL"}
{"SMILES": "CCCN(C)C(=O)C(NC(C)=O)[C@H]1CC(C(=O)O)C[C@@H]1N=C(N)N", "read-out": "IC50", "protein": "Neuraminidase", "organism": "Influenza A virus (H6N2)", "test": "target", "value": "0.94 µM"}
{"SMILES": "Nc1nc2c(ncn2C[C@H]2COP(=O)(O)CO2)c(=O)[nH]1", "read-out": "CC50", "cells": "PHK", "test": "toxicity", "value": "8.2 µg/mL"}
{"SMILES": "CC(=O)NC(C(=O)NCCc1ccccc1)[C@H]1CC(C(=O)O)C[C@@H]1N=C(N)N", "read-out": "IC50", "protein": "Neuraminidase", "organism": "Influenza A virus (H6N2)", "test": "target", "value": "6.4 µM"}
{"SMILES": "Nc1nc2c(ncn2C[C@H](CO)OCP(=O)(O)O)c(=O)[nH]1", "read-out": "CC50", "cells": "PHK", "test": "toxicity", "value": "34.4 µg/mL"}
{"SMILES": "CCNC(=O)C(NC(C)=O)[C@H]1CC(C(=O)O)C[C@@H]1N=C(N)N", "read-out": "IC50", "protein": "Neuraminidase", "organism": "Influenza A virus (H6N2)", "test": "target", "value": "0.33 µM"}
{"SMILES": "NC(=O)c1c[se]c([C@@H]2O[C@H](CO)[C@@H](O)[C@H]2O)n1", "read-out": "EC50", "cells": "VERO", "strain": "HBL7990", "organism": "Hantaan virus", "test": "culture", "value": "1.6 µg/mL"}
{"SMILES": "Nc1nc2c(ncn2CC(CO)OCP(=O)(O)O)c(=O)[nH]1", "read-out": "CC50", "cells": "PHK", "test": "toxicity", "value": "6.6 µg/mL"}
{"SMILES": "CC(C)[C@H](Cc1ccc(OCC(=O)O)cc1)NC(=O)c1ccc2c(c1)nc(-c1ccoc1)n2C1CCCCC1", "read-out": "IC50", "protein": "RNA-dependent RNA polymerase", "organism": "Poliovirus", "test": "target", "value": ">25 µM"}
{"SMILES": "Cn1c(O)c(N=NC(N)=S)c2ccccc21", "read-out": "EC50", "cells": "VERO", "organism": "Monkeypox virus", "test": "culture", "value": "141 µM"}
{"SMILES": "COC(=O)[C@H](Cc1c[nH]c2ccc(OCC(=O)O)cc12)NC(=O)c1ccc2c(c1)nc(-c1ccoc1)n2C(C)C", "read-out": "IC50", "protein": "RNA-dependent RNA polymerase", "organism": "Poliovirus", "test": "target", "value": ">25 µM"}
{"SMILES": "NC(=O)c1ncn([C@@H]2O[C@H](CO)[C@@H](O)[C@H]2O)n1", "read-out": "EC50", "cells": "VERO 76", "strain": "Nakayama", "organism": "Japanese encephalitis virus", "test": "culture", "value": "65 µg/mL"}
{"SMILES": "Cc1cc(OCC(=O)O)cc(C)c1CC(NC(=O)c1ccc2c(c1)nc(-c1ccoc1)n2C1CCCCC1)C(=O)O", "read-out": "IC50", "protein": "RNA-dependent RNA polymerase", "organism": "Poliovirus", "test": "target", "value": ">25 µM"}
{"SMILES": "CC(=O)NC(C(=O)N1CCOCC1)[C@H]1CC(C(=O)O)C[C@@H]1N=C(N)N", "read-out": "IC50", "protein": "Neuraminidase", "organism": "Influenza A virus (H6N2)", "test": "target", "value": "0.04 µM"}
{"SMILES": "CN(C)CCNC(=O)[C@H](Cc1ccc(O)cc1)NC(=O)c1ccc2c(c1)nc(-c1ccoc1)n2C1CCCCC1", "read-out": "IC50", "protein": "RNA-dependent RNA polymerase", "organism": "Poliovirus", "test": "target", "value": ">25 µM"}
{"SMILES": "Nc1nc2c(ncn2COCCO)c(=O)[nH]1", "read-out": "EC50", "cells": "BSC", "organism": "Variola virus", "test": "culture", "value": "776 µM"}
{"SMILES": "CC1(C)[C@@H](O[C@H]2O[C@H](C(=O)O)[C@@H](O)[C@H](O)[C@H]2O[C@@H]2O[C@H](C(=O)O)[C@@H](O)[C@H](O)[C@H]2O)CC[C@]2(C)[C@H]3C(=O)C=C4[C@@H]5C[C@@](C)(C(=O)O)CC[C@]5(C)CC[C@@]4(C)[C@]3(C)CC[C@@H]12", "read-out": "EC90", "cells": "VERO", "strain": "FNV", "organism": "Yellow fever virus", "test": "culture", "value": "429 µg/mL"}
{"SMILES": "O=C(N[C@@H](Cc1ccc(O)cc1)C(=O)Nc1cccnc1)c1ccc2c(c1)nc(-c1ccoc1)n2C1CCCCC1", "read-out": "IC50", "protein": "RNA-dependent RNA polymerase", "organism": "Poliovirus", "test": "target", "value": ">25 µM"}

For reference, 3 entries again:

SMILES	read-out	protein	cells	strain	organism	test	value
CC1(C)[C@@H](O[C@H]2O[C@H](C(=O)O)[C@@H](O)[C@H](O)[C@H]2O[C@@H]2O[C@H](C(=O)O)[C@@H](O)[C@H](O)[C@H]2O)CC[C@]2(C)[C@H]3C(=O)C=C4[C@@H]5C[C@@](C)(C(=O)O)CC[C@]5(C)CC[C@@]4(C)[C@]3(C)CC[C@@H]12	EC90	-	VERO	FNV	Yellow fever virus	culture	429 µg/mL
Nc1nc2c(ncn2COCCO)c(=O)[nH]1	EC50	-	BSC	-	Variola virus	culture	776 µM
Nc1nc2c(ncn2CC(CO)OCP(=O)(O)O)c(=O)[nH]1	CC50	-	PHK	-	-	toxicity	6.6 µg/mL

An empty or dashed field is not shown. ICn is the concentration giving n% inhibition. ECn: concentration that inhibits the pathogen or its effect by n%. Conditions beyond the fields shown may differ between rows.